Assay results as given in publication PMC8545107 (mBio, 2021).
Where a sequence shows no end group, the ends are not given.

Experiment: general procedure: peptide synthesis; Cl-MPA Protide resin (LL)
Conditions: whole synthesis

Sequence	final HPLC purity [%]
KDFLIVGPFDWLKKNHKPTKHA	> 97
DALIVGPFDWLKKNHKPTKHA	> 96
WLKKNHKPTKHA	> 96
KNKDFLIVGPFDWLKKNHKPTKHA	> 99
DFLIVGPFDWLKKNHKPTKAA	> 98
DFLIVGPADWLKKNHKPTKHA	> 99
DFLIVGPFDWLKKNAKPTKHA	> 99
DWLKKNHKPTKHA	> 98
DFLIVGPFDWLKKNHKPTAHA	> 99
DFLIVGPFAWLKKNHKPTKHA	> 99
DFLIVGPFDWLKKAHKPTKHA	> 97
NKDFLIVGPFDWLKKNHKPTKHA	> 98
DFLIVGPFDWLKKNHKATKHA	> 98
DFAIVGPFDWLKKNHKPTKHA	> 98
DFLAVGPFDWLKKNHKPTKHA	> 99
VGPFDWLKKNHKPTKHA	> 98
GPFDWLKKNHKPTKHA	> 96
DFLIVGPFDWLKKNHKPT	> 99

Sequence	final HPLC purity [%]
DFLIVGPFDWLKKNHKPAKHA	> 95
DFLIVGPFDWLKKNHKPTKH	> 96
DFLIAGPFDWLKKNHKPTKHA	> 99
AFLIVGPFDWLKKNHKPTKHA	> 99
PFDWLKKNHKPTKHA	> 99
FLIVGPFDWLKKNHKPTKHA	> 97
FDWLKKNHKPTKHA	> 97
IVGPFDWLKKNHKPTKHA	> 99
DFLIVAPFDWLKKNHKPTKHA	> 99
DFLIVGPFDWAKKNHKPTKHA	> 99
LKKNHKPTKHA	> 98
DFLIVGAFDWLKKNHKPTKHA	> 99
DFLIVGPFDWLKKNHKPTK	> 98
DFLIVGPFDWLAKNHKPTKHA	> 98
DFLIVGPFDALKKNHKPTKHA	> 97
DFLIVGPFDWLKANHKPTKHA	> 99
DFLIVGPFDWLKKNHAPTKHA	> 99
LIVGPFDWLKKNHKPTKHA	> 96
